From paper PMC8358046

Assay: Lung pathology of uninfected (PBS) control mice given oseltamivir
Settings: PBS instead of virus; 20 mg/kg/day oseltamivir phosphate by gavage 0 to 4 dpi

SMILES: CCOC(=O)C1=C[C@@H](OC(CC)CC)[C@H](NC(C)=O)[C@@H](N)C1
- Pathological changes in lung tissue of uninfected mice: no obvious pathological changes in the lung tissue of mice
